Reference: PMC5072668

Tested on: O=[N+]([O-])c1ccc(O[C@@H]2O[C@@H](CO)[C@H](O)[C@H]2O)cc1
Assay: purified protein
Conditions: 50 mM sodium phosphate pH 7.0, 45 °C, printed unit doubtful (assay used 1 mM substrate; mM possible)

“MoAbfB (arabinofuranosidase-B) (Pyricularia oryzae 70-15)” gave a Km of 0.001206 mM.
